Assay results reported in PMC8184013, “Interactions of SARS-CoV-2 envelope protein with amilorides correlate with antiviral activity” (2021).

Key:
[1] = system: N15A mutant of full-length SARS-CoV-2 E protein, SARS-CoV-2, P0DTC4 1-75; test: PFO-PAGE
[2] = system: V25F mutant of full-length SARS-CoV-2 E protein, SARS-CoV-2, P0DTC4 1-75; test: PFO-PAGE

Row | Substance | result [1] | result [2]
1 | N15A mutant of full-length SARS-CoV-2 E protein | binds | –
2 | V25F mutant of full-length SARS-CoV-2 E protein | – | binds
